From patent US6514997B2, “Antipicornaviral compounds and compositions, their pharmaceutical uses, and materials for their synthesis” (Agouron Pharmaceuticals, Inc., priority 1999, dated 2003)

Legend:
HRV-14 = test: Antirhinoviral H1-HeLa cell culture assay (XTT cell protection, EC50), HRV-14; assay type: cell-based, human rhinovirus (HRV) serotype-14 in H1-HeLa cells
Experimental: (§1) Antirhinoviral H1-HeLa Cell Culture Assay:
In this cell protection assay, the ability of compounds to protect cells against HRV infection was measured by the XTT dye reduction method, which is described in Weislow et al., J. Natl. Cancer Inst. […] H1-HeLa cells were infected with HRV-14 at a multiplicity of infection (m.o.i.) of 0.13 (virus particles/cell) or mock-infected with medium only. Infected or mock-infected cells were resuspended at 8×10^5 cells per mL, and incubated with appropriate concentrations of the compounds to be tested. Two days later, XTT/PMS was added to test plates and the amount of formazan produced was quantified spectrophotometrically at 450/650 nm. […] The therapeutic index (TI) was calculated by dividing the CC50 value by the EC50 value.
(§2) All strains of human rhinovirus (HRV) for use in this assay were purchased from American Type Culture Collection (ATCC), except for HRV serotype-14 (produced from the infectious cDNA clone constructed by Dr. Robert Rueckert, Institute for Molecular Virology, University of Wisconsin, Madison, Wis.). HRV stocks were propagated and viral assays were performed in H1-HeLa cells (ATCC). Cells were grown in minimal essential medium with 10% fetal bovine serum, available from Life Technologies (Gaithersburg, Md.).

[1] = system: strains of human rhinovirus (HRV); test: Antirhinoviral H1-HeLa cell culture assay (XTT cell protection, EC50), other HRV strains; assay type: cell-based, human rhinovirus in H1-HeLa cells
Experimental: as §1
In this cell protection assay, the ability of compounds to protect cells against HRV infection was measured by the XTT dye reduction method, which is described in Weislow et al., J. Natl. Cancer Inst. (1989), vol. 81, 577-586. H1-HeLa cells were infected with HRV-14 at a multiplicity of infection (m.o.i.) of 0.13 (virus particles/cell) or mock-infected with medium only. Infected or mock-infected cells were resuspended at 8×10^5 cells per mL, and incubated with appropriate concentrations of the compounds to be tested. Two days later, XTT/PMS was added to test plates and the amount of formazan produced was quantified spectrophotometrically at 450/650 nm. The EC50 value was calculated as the concentration of compound that increased the percentage of formazan production in compound-treated, virus-infected cells to 50% of that produced by compound-free, mock-infected cells. The 50% cytotoxic dose (CC50) was calculated as the concentration of compound that decreased the percentage of formazan produced in compound-treated, mock-infected cells to 50% of that produced by compound-free, mock-infected cells. The therapeutic index (TI) was calculated by dividing the CC50 value by the EC50 value.
as §2

| SMILES | TI (HRV-14) | TI ([1]; HRV-1A) | TI ([1]; HRV-2) | TI ([1]; HRV-3) | TI ([1]; HRV-9) | TI ([1]; HRV-10) | TI ([1]; HRV-16) | TI ([1]; HRV-25) | TI ([1]; HRV-39) | TI ([1]; HRV-11) | TI ([1]; HRV-13) | TI ([1]; HRV-19) | TI ([1]; HRV-23) | TI ([1]; HRV-78) | TI ([1]; HRV-Hanks) |
| --- | --- | --- | --- | --- | --- | --- | --- | --- | --- | --- | --- | --- | --- | --- | --- |
| C#CC[C@@H](C(=O)N[C@H](/C=C/C(=O)OC(C)C)C[C@@H]1CCNC1=O)n1cccc(NC(=O)c2cc(C)on2)c1=O [Compound 50, trans-(2′S,3′″″S,4S)-4-[2′-(3″- {[1′″-(5″″-Methylisoxazol-3″″-yl)methanoyl]amino}-2′″-oxo-2′″H-pyridin-1′″-yl)pent-4″-ynoylamino]-5-(2′″″-oxopyrrolidin-3′″″-yl)pent-2-enoic Acid Isopropyl Ester] | >147 | >50 | >95 | >85 | >81 | >13 | >54 | >26 | – | – | – | – | – | – | – |
| CC[C@@H](C(=O)N[C@H](/C=C/C(=O)OC(C)C)C[C@@H]1CCNC1=O)n1cccc(NC(=O)c2cc(C)on2)c1=O [Compound 52, trans-(2′S,3′″″S,4S)-4-[2′-(3″-{[1′″-(5″″-Methylisoxazol-3″″-yl)methanoyl]amino}-2′″oxo-2′″H-pyridin-1′″-yl)butanoylamino]-5-(2′″″-oxopyrrolidin-3′″″-yl)pent-2-enoic Acid Isopropyl Ester] | >55 | – | – | – | >21 | >56 | >35 | >91 | >29 | – | – | – | – | – | – |
| Cc1cc(C(=O)Nc2cccn([C@@H](Cc3ccc(F)c(F)c3)C(=O)N[C@H](/C=C/C(=O)OC3CCCCC3)C[C@@H]3CCNC3=O)c2=O)no1 [Compound 54, trans-(2′S,3″″″S,4S)-4-[3′-(3″,4″-Difluorophenyl)-2′-(3′″-{[1″″-(5′″″-methylisoxazol-3′″″-yl)methanoyl]amino}-2″″-oxo-2″″H-pyridin-1″″-yl)propanoylamino]-5-(2″″″-oxopyrrolidin-3″″″-yl)pent-2-enoic Acid Cyclohexyl Ester] | >222 | >20 | >67 | – | >19 | >76 | >70 | >46 | >28 | – | – | – | – | – | – |
| C#CC[C@@H](C(=O)N[C@H](/C=C/C(=O)OC1CCCCC1)C[C@@H]1CCNC1=O)n1cccc(NC(=O)c2cc(C)on2)c1=O [Compound 55, trans-(2′S,3′″″S,4S)-4-[2′-(3″-{[1′″-(5″″-Methylisoxazol-3″″-yl)methanoyl]amino}-2′″-oxo-2′″H-pyridin-1′″-yl)pent-4″-ynoylamino]-5-(2′″″-oxopyrrolidin-3′″″-yl)pent-2-enoic Acid Cyclohexyl Ester] | >57 | >19 | – | – | >18 | >51 | – | >19 | – | – | – | – | – | – | – |
| C#CC[C@@H](C(=O)N[C@H](/C=C/C(=O)OC1CCCCCC1)C[C@@H]1CCNC1=O)n1cccc(NC(=O)c2cc(C)on2)c1=O [Compound 57, trans-(2′S,3′″″S,4S)-4-[2′-(3″-{[1′″-(5″″-Methylisoxazol-3″″-yl)methanoyl]amino}-2′″-oxo-2′″H-pyridin-1′″-yl)pent-4″-ynoylamino]-5-(2′″″-oxopyrrolidin-3′″″-yl)pent-2-enoic Acid Cycloheptyl Ester] | >23 | >6 | – | – | >6 | >20 | – | >1 | – | – | – | – | – | – | – |
| Cc1cc(C(=O)Nc2cccn([C@@H](Cc3ccc(F)c(F)c3)C(=O)N[C@H](/C=C/C(=O)OC3CCC3)C[C@@H]3CCNC3=O)c2=O)no1 [Compound 58, trans-(2′S,3″″″S,4S)-4-[3′-(3″,4″-Difluorophenyl)-2′-(3′″-{[1″″-(5′″″-methylisoxazol-3′″″-yl)methanoyl]amino}-2″″-oxo-2″″H-pyridin-1″″-yl)propanoylamino]-5-(2″″″-oxopyrrolidin-3″″″-yl)pent-2-enoic Acid Cyclobutyl Ester] | >3333 | >714 | >769 | >2000 | >212 | >909 | >714 | >625 | >500 | >2000 | >416 | >588 | >1250 | >714 | >476 |
| CC[C@@H](C(=O)N[C@H](/C=C/C(=O)OC1CCCCC1)C[C@@H]1CCNC1=O)n1cccc(NC(=O)c2cc(C)on2)c1=O [Compound 60, trans-(2′S,3′″″S,4S)-4-[2′-(3″-{[1′″-(5″″-Methylisoxazol-3″″-yl)methanoyl]amino}-2′″oxo-2′″H-pyridin-1′″-yl)butanoylamino]-5-(2′″″-oxopyrrolidin-3′″″-yl)pent-2-enoic Acid Cyclohexyl Ester] | >57 | >17 | – | – | >19 | >27 | – | >39 | – | – | – | – | – | – | – |
| Cc1cc(C(=O)Nc2cccn([C@@H](Cc3ccccc3)C(=O)N[C@H](/C=C/C(=O)OC(C)C)C[C@@H]3CCNC3=O)c2=O)no1 [Compound 66, trans-(2′S,3′″″S,4S)-4-[2′-(3″-{[1′″-(5″″-Methylisoxazol-3″″-yl)methanoyl]amino}-2′″-oxo-2′″H-pyridin-1′″-yl)-3″-phenylpropanoylamino]-5-(2′″″-oxopyrrolidin-3′″″-yl)pent-2-enoic Acid Isopropyl Ester] | >64 | – | – | >178 | >51 | – | >909 | – | >454 | – | >175 | – | – | >666 | – |
| Cc1cc(C(=O)Nc2cccn([C@@H](Cc3ccc(F)cc3)C(=O)N[C@H](/C=C/C(=O)OC(C)C)C[C@@H]3CCNC3=O)c2=O)no1 [Compound 67, trans-(2′S,3″″″S)-4-[3′-(4″-Fluorophenyl)-2′-(3′″-{[1″″-(5′″″-methylisoxazol-3′″″-yl)methanoyl]amino}-2″″-oxo-2″″H-pyridin-1″″-yl)propanoylamino]-5-(2″″″-oxopyrrolidin-3″″″-yl)pent-2-enoic Acid Isopropyl Ester] | >175 | – | – | >526 | >61 | – | >303 | – | >263 | – | >61 | – | – | >208 | – |
